Test results reported in patent US20190038613A1, “COMBINATION THERAPY” (Eli Lilly and Company, priority 2016, published 2019).

Target: T1, Aβ […] peptide (Homo sapiens)
T1 construct: flowing pE3-42 Aβ peptide or Aβ 1-40 peptide, starting from 100 nM
Experiment: Binding affinity and kinetics by surface plasmon resonance (BIACORE 3000)
Conditions: SPR, peptide 100 nM down to 3.125 nM, 25° C.
Method: The binding affinity and kinetics of an anti-[…] […] The binding affinity is measured by capturing the anti-[…] Aβ antibody via immobilized protein A on a BIACORE® CMS chip, and flowing pE3-42 Aβ peptide or Aβ 1-40 peptide, starting from 100 nM in 2-fold serial dilution down to 3.125 nM. The experiments are carried out at 25° C. in HBS-EP buffer (GE Healthcare BR100669; 10 mM HEPES, 150 mM NaCl, 3 mM EDTA, 0.05% surfactant P20, pH 7.4). For each cycle, the antibody is captured with 5 μL injection of antibody solution at a 10 μg/mL concentration with 10 μL/min, flow rate. The peptide is bound with 250 μL injection at 50 μL/min, and then dissociated for 10 minutes. The chip surface is regenerated with 5 μL injection of glycine buffer at pH 1.5 at 10 μL/mL flow rate. The data is fit to a 1:1 Langmiur binding model to derive kon, koff, and to calculate KD.

B1: Antibody I: anti-N3pGlu Abeta antibody with LC of SEQ ID NO: 12 and HC of SEQ ID NO: 11 (antibody)
heavy: QVQLVQSGAEVKKPGSSVKVSCKASGYTFTDYYINWVRQAPGQGLEWMGWINPGSGNTKYNEKFKGRVTITADESTSTAYMELSSLRSEDTAVYYCTREGETVYWGQGTLVTVSSASTKGPSVFPLAPSSKSTSGGTAALGCLVKDYFPEPVTVSWNSGALTSGVHTFPAVLQSSGLYSLSSVVTVPSSSLGTQTYICNVNHKPSNTKVDKKV[human IgG1 Fc not listed]
light: DVVMTQSPLSLPVTLGQPASISCKSSQSLLYSRGKTYLNWFQQRPGQSPRRLIYDVSKLDSGVPDRFSGSGSGTDFTLKISRVEAEDVGVYYCVQGTHYPFTFGQGTKLEIKRTVAAPSVFIFPPSDEQLKSGTASVVCLLNNFYPREAKVQWKVDNALQSGNSQESVTEQDSKDSTYSLSSTLTLSKADYEKHKVYACEVTHQGLSSPVTKSFNRGEC
  binding to Aβ 1-40: No appreciable binding

B2: Antibody II: anti-N3pGlu Abeta antibody with LC of SEQ ID NO: 13 and HC of SEQ ID NO: 11 (antibody)
heavy: B1 heavy
light: DIQMTQSPSTLSASVGDRVTITCKSSQSLLYSRGKTYLNWLQQKPGKAPKLLIYAVSKLDSGVPSRFSGSGSGTEFTLTISSLQPDDFATYYCVQGTHYPFTFGQGTKLEIKRTVAAPSVFIFPPSDEQLKSGTASVVCLLNNFYPREAKVQWKVDNALQSGNSQESVTEQDSKDSTYSLSSTLTLSKADYEKHKVYACEVTHQGLSSPVTKSFNRGEC
  binding to Aβ 1-40: No appreciable binding
